The source of these data is the supplement of paper PMC9931576.

Human monoclonal antibodies against the spike receptor-binding domain (heavy:light variable regions). IC50 against pseudoviruses bearing the spike of naturally observed variants; lower = stronger; >10 µg/ml means not reached at the top dose. No active / inactive call. The stated detection limit is 0.0005 µg/ml; values near or below 0.001 µg/ml lie at the floor of the assay.

B1: BD56-1456 (protein)
chain 1: QVQLVQSGAEVKKPGASVKVSCKASGYTFTSYGIGWVRQAPGQGLEWMGWISAPNGDTNYAQNVRGRVTVTTDTSTSTAYMELRRLRSGDTAVYYCARVFGIYDYIWGSYPYPPFFDYWGQGTLVTVSS
chain 2: SYELTQPPSVSVSPGQTASITCSGDKLGDKYASWYQQKPGQSPVVVIYQQNKRPSGIPERFSGSISGSTATLTISGTQAMDEADYYCQAWDSSTVVFGGGTKLTVL
B2: BD56-1462 (protein)
chain 1: VHLVESGGGVVQPGRSLRLSCAASGFTFTSHAMHWVRQAPGKGLEWVAVTSYDGNYKYYSDSVKGRFTISRDNSKSTLYLQMNSLRAEDTAVYYCARAALEYCANGVCYFEYWGQGTLVTVSS
chain 2: NFMLTQSHSVSESPGKTVTISCTGSGGTIASNYVQWYQQRPGSAPTTVIYEDNQRPSGVPERFSGSIDSSSNSASLTISGLKTEDEAVYYCQSYDVNNLWVFGGGTTLTVL
B3: BD56-1472 (protein)
chain 1: QVQLVQSAAEVKKPGSSVKVSCKASGGTFSSYTVSWMRQAPGQGLEWIGRIISVHAIVNYEQKFQGRVTITADTSTSTAFMELSSLRSEDTAVYYCASRNFDVLTGYESGHFDSWGQGTPVTVSS
chain 2: EIVMTQSPATLSVSPGERATLSCRASQSVSSNLAWYQQKPGQAPRLLIFDASTRATGIPVRFSGSGSGTEFTLTISSLQSGDFAVYYCQQYSKWPSFGGGTKVEIK
B4: BD56-1470 (protein)
chain 1: QVQLQESGPGLVRPSETLSLTCSVSGGSLSHYYWTWIRQPPGKGLEWIGYMFHSGSTNYNPSLRSRVTISADTSKNQFSLKLKSVTAADTAMYFCAKDRGESSGWPDALDIWGQGTMVTVSS
chain 2: DIQMTQSPSSLSASVGDRVTITCQASQDISNYLNWYQQKPGKAPKLLIYDASNLEPGVPSRFSGSGSGTDFTFTISSLQPEDIATYYCQQYHNLPWTFGQGTKVEVK
B5: BD56-1467 (protein)
chain 1: QLQLQESGPGLVKPSETLSLTCTVSGGSIGSRSYYWGWIRQSPGKGLEWIGNIYYNGNTYYNPSLKSRVTISLDTSRNQFSLKLNSVTAADTAVYYCARVGGEGDYFDYWGQGTLVTVSS
chain 2: DIQMTQSPSTLSASVGDRVTITCRASQSISTWLAWYQQKPGKAPKLLIYKASLLESVLPSRFSGSGSGTEFTLTISSLQPDDFATYYCQQYNSYRTFGQGTKVEIK
B6: BD56-1460 (protein)
chain 1: QVQLVQSGGEVKKPGASVKVSCKASGYSFTSFGFSWVRQAPGQGLEWVGWISASNGNTNYAQTLQGRVTLTTDTSTKTAYMELRSLRSDDTAVYYCARVFGIYDYIWGNYPYPPYFDFWGQGTLVTVSS
chain 2: SYELTQPPSVSVSPGQTASITCSGDKLGDKFACWYQQKPGQSPVLVIYQDGKRPSGIPERVSGSNSGNTVTLTISGTQAMDEADYYCLAWDSSTVIFGGGTKLTVL
B7: BD56-1457 (protein)
chain 1: EVQLVESGGGLVQPGRSLRLSCAASGFNFDDYAMHWVRQAPGKGLEWVSGSSWNSATIDYADSVKGRFIISRDNAKNSLFLQMNSLRTEDTAFYYCAKGLNPYYLDTSGYYNDLDAFDVWGLGTMVTVSS
chain 2: EIVLTQSPGTLSLSPGERATLSCRASQSVSSSYFAWYQQKPGQAPRLLIYGASTRATGIPDRFSGSGSGTDFTLTISRLEPEDFAVYYCQQYGSSLLTFGGGTKVEIK
B8: BD56-1447 (protein)
chain 1: QVQLVQSGAEVKKPGASVKLSCKASGYTFSSNYIHWVRQAPGQGLEWMGIINPSGGSTRYAQKFQGRVSMTRDTSTSTVYMELSSLRSADTAVYYCARSMYRTSSEGNYYYYYMDVWGKGTTVTVSS
chain 2: QSALTQPASVSGSPGQSITISCTETASDFALYNYVSWYQRRPGEAPKLVIYDVNKRPSGVSNRFSGSKSGNTASLTISGLQAEDEADYYCSSYTSANIHAVFGGGTKLTVL
B9: BD56-1466 (protein)
chain 1: QVQLVQSGAEVKKPGASVKVSCKASGYTFTSYYMHWVRQAPGQGLEWLGIINPTGGSTRYAQKFQGRVTMTRDTSTTTVYMELSSLRSEDTAVYYCARSMYTTSSEGNYYYYYMDVWGKGTTVTVSS
chain 2: QSALTQPASVSGSPGQSITISCTGTTSDVGGYNYVSWYQQHPGKVPKLMIYDVSKRPSGVSNRFSGSKSGKTASLTISGLQAEDEADYYCSSYTSSSIHAVFGGGTKLTVL
B10: BD56-1451 (protein)
chain 1: QVTLRESGPALVKPTQTLTLTCTFSGFSLSTSGMCVSWIRQPPGKALEWLALIDWDDDKSYSISLKTRLTISKDTSKNQVVLTMTNMAPVDTATYYCARIRGGSSAYQYDYYGMDVWGQGTTVTVSS
chain 2: SYELTQPPSVSVSPGQTARITCSGDAWPKQYAYWYQQKPGQAPVLVIYKDTERPSGIPERFSGSSSGTTVTLTISGVQAEDEADYYCQSADSRHWVFGGGTKLTVL
B11: BD56-1446 (protein)
chain 1: QIQLLQSGPEVKKPGTSVKVSCRASGFTFRSSAVQWLRQTRGQRLEWIGWIVAGSGDTDYAQKFQERATITRDMSTSTTYMELSSLRSEDTAVYYCAAPSCSSTICYDGFNLWGQGTMVTVSS
chain 2: EIVLTQSPGTLSLSPGERATLSCRASQSARANYLAWYQQKPGQAPRLLIYGASSRATGIPDRFSGSGSGTDFTLTISRLEPEDFSVYYCQQYGTSPWTFGQGTKVEIK
B12: BD56-1459 (protein)
chain 1: EVQLVESGGGLVKPGGSLRLSCVASGFTFSGYSMNWVRQAPGQGLEWVSSMGSSSSYISYADSVRGRFTISRDNARNSLYLQMNSLRAEDTAIYYCARDVSVIYCSDGSCYFDYWGQGTLVTVSS
chain 2: EIVLTQSPGTLSLSPGERATLSCRASQSVRSSYLAWYQQKPGQAPRLLIYDASSRATGIPDRFSGSGSGTDFTLTISRVEPEDFAVYYCQQYGASPGTLGQGTKVEIK

In the first test the target is SARS-CoV-2 Omicron BA.1 spike pseudovirus. Description: pseudovirus neutralization IC50; higher = weaker neutralization. The procedure: (§1)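 Single-round VSV luciferase pseudovirus mixed with antibody dilutions for 1 h and put on Huh-7 cells for about a day; IC50 from the dose curve.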
Consider B1, for which the “pseudovirus neutralization IC50” value amounted to 0.343 µg/mL.

In the case of B2, the “pseudovirus neutralization IC50” value was over 10 µg/mL.

For B3, the “pseudovirus neutralization IC50” value came to 0.059 µg/mL.

B4: the “pseudovirus neutralization IC50” value worked out at 0.277 µg/mL.

In the case of B5, the “pseudovirus neutralization IC50” value is over 10 µg/mL.

Regarding B6, the “pseudovirus neutralization IC50” value was over 10 µg/mL.

Turning to B7, the “pseudovirus neutralization IC50” value came out at 0.0616 µg/mL.

With B8, the “pseudovirus neutralization IC50” value is over 10 µg/mL.

Regarding B9, the “pseudovirus neutralization IC50” value was over 10 µg/mL.

In the case of B10, the “pseudovirus neutralization IC50” value is over 10 µg/mL.

B11: the “pseudovirus neutralization IC50” value was determined as 0.00137 µg/mL.

Consider B12, for which the “pseudovirus neutralization IC50” value is 0.00925 µg/mL.

A further test addresses SARS-CoV-2 Omicron BA.2 spike pseudovirus. The test is described as above. As for the experimental part: as §1
Turning to B1, the “pseudovirus neutralization IC50” value is 0.158 µg/mL.

As to B2, the “pseudovirus neutralization IC50” value is over 10 µg/mL.

For the molecule B3, the “pseudovirus neutralization IC50” value is 0.0636 µg/mL.

Consider B4, for which the “pseudovirus neutralization IC50” value came to 0.361 µg/mL.

In the case of B5, the “pseudovirus neutralization IC50” value was over 10 µg/mL.

B6: the “pseudovirus neutralization IC50” value was over 10 µg/mL.

On to B7, for which the “pseudovirus neutralization IC50” value was 0.0528 µg/mL.

Take B8: the “pseudovirus neutralization IC50” value turned out to be 0.00695 µg/mL.

In the case of B9, the “pseudovirus neutralization IC50” value was over 10 µg/mL.

Regarding B10, the “pseudovirus neutralization IC50” value was over 10 µg/mL.

As to B11, the “pseudovirus neutralization IC50” value came out at 0.00108 µg/mL.

Take B12: the “pseudovirus neutralization IC50” value turned out to be 0.00603 µg/mL.

Another test has as its target SARS-CoV-2 Omicron BA.2.75 spike pseudovirus. Described as above. The procedure:
as §1
Turning to B1, the “pseudovirus neutralization IC50” value amounted to 0.276 µg/mL.

As for B2, the “pseudovirus neutralization IC50” value was over 10 µg/mL.

Consider B3, for which the “pseudovirus neutralization IC50” value was 0.0702 µg/mL.

For the molecule B4, the “pseudovirus neutralization IC50” value stood at 0.369 µg/mL.

With B5, the “pseudovirus neutralization IC50” value was over 10 µg/mL.

On to B6, for which the “pseudovirus neutralization IC50” value is over 10 µg/mL.

As to B7, the “pseudovirus neutralization IC50” value is 0.0765 µg/mL.

For B8, the “pseudovirus neutralization IC50” value was over 10 µg/mL.

B9: the “pseudovirus neutralization IC50” value was over 10 µg/mL.

Take B10: the “pseudovirus neutralization IC50” value was over 10 µg/mL.

In the case of B11, the “pseudovirus neutralization IC50” value is 0.00249 µg/mL.

For B12, the “pseudovirus neutralization IC50” value was found to be 0.0056 µg/mL.

In the next test the target is SARS-CoV-2 Omicron BA.5 spike pseudovirus. The description is as above. The procedure: as §1
Consider B1, for which the “pseudovirus neutralization IC50” value came out at 2.77 µg/mL.

For the molecule B2, the “pseudovirus neutralization IC50” value was over 10 µg/mL.

B3: the “pseudovirus neutralization IC50” value was over 10 µg/mL.

In the case of B4, the “pseudovirus neutralization IC50” value came out at 0.881 µg/mL.

Turning to B5, the “pseudovirus neutralization IC50” value is over 10 µg/mL.

For the molecule B6, the “pseudovirus neutralization IC50” value is over 10 µg/mL.

Take B7: the “pseudovirus neutralization IC50” value worked out at 0.0558 µg/mL.

In the case of B8, the “pseudovirus neutralization IC50” value was 0.0236 µg/mL.

Consider B9, for which the “pseudovirus neutralization IC50” value was over 10 µg/mL.

B10: the “pseudovirus neutralization IC50” value was over 10 µg/mL.

Take B11: the “pseudovirus neutralization IC50” value came to 0.215 µg/mL.

Take B12: the “pseudovirus neutralization IC50” value is over 10 µg/mL.

In another test the target is SARS-CoV-2 Omicron BQ.1.1 spike pseudovirus. The description is as above. The procedure: as §1
Turning to B1, the “pseudovirus neutralization IC50” value is over 10 µg/mL.

Take B2: the “pseudovirus neutralization IC50” value is over 10 µg/mL.

On to B3, for which the “pseudovirus neutralization IC50” value was over 10 µg/mL.

Regarding B4, the “pseudovirus neutralization IC50” value is over 10 µg/mL.

B5: the “pseudovirus neutralization IC50” value is over 10 µg/mL.

With B6, the “pseudovirus neutralization IC50” value is over 10 µg/mL.

On to B7, for which the “pseudovirus neutralization IC50” value is over 10 µg/mL.

With B8, the “pseudovirus neutralization IC50” value was over 10 µg/mL.

As to B9, the “pseudovirus neutralization IC50” value is over 10 µg/mL.

Take B10: the “pseudovirus neutralization IC50” value is over 10 µg/mL.

For the molecule B11, the “pseudovirus neutralization IC50” value stood at 0.259 µg/mL.

As to B12, the “pseudovirus neutralization IC50” value was over 10 µg/mL.

A further test deals with SARS-CoV-2 Omicron XBB spike pseudovirus. The test is described as above. The procedure: as §1
For the molecule B1, the “pseudovirus neutralization IC50” value was 3.45 µg/mL.

For B2, the “pseudovirus neutralization IC50” value is over 10 µg/mL.

As to B3, the “pseudovirus neutralization IC50” value is over 10 µg/mL.

For B4, the “pseudovirus neutralization IC50” value was found to be 1.8 µg/mL.

Take B5: the “pseudovirus neutralization IC50” value is over 10 µg/mL.

On to B6, for which the “pseudovirus neutralization IC50” value was over 10 µg/mL.

With B7, the “pseudovirus neutralization IC50” value turned out to be 2.65 µg/mL.

Consider B8, for which the “pseudovirus neutralization IC50” value is over 10 µg/mL.

Consider B9, for which the “pseudovirus neutralization IC50” value was over 10 µg/mL.

Consider B10, for which the “pseudovirus neutralization IC50” value is over 10 µg/mL.

With B11, the “pseudovirus neutralization IC50” value is 2.89 µg/mL.

Take B12: the “pseudovirus neutralization IC50” value was over 10 µg/mL.

The next test has as its target SARS-CoV-2 early D614G spike pseudovirus. The description is as above. As for the experimental part: as §1
As to B1, the “pseudovirus neutralization IC50” value came out at 0.0253 µg/mL.

B2: the “pseudovirus neutralization IC50” value worked out at 0.395 µg/mL.

Consider B3, for which the “pseudovirus neutralization IC50” value is 0.00115 µg/mL.

For B4, the “pseudovirus neutralization IC50” value is 0.00836 µg/mL.

B5: the “pseudovirus neutralization IC50” value was 0.44 µg/mL.

Take B6: the “pseudovirus neutralization IC50” value amounted to 0.253 µg/mL.

Turning to B7, the “pseudovirus neutralization IC50” value came out at 0.048 µg/mL.

Regarding B8, the “pseudovirus neutralization IC50” value turned out to be 0.0018 µg/mL.

For the molecule B9, the “pseudovirus neutralization IC50” value came out at 0.00402 µg/mL.

As for B10, the “pseudovirus neutralization IC50” value was found to be 2.54 µg/mL.

B11: the “pseudovirus neutralization IC50” value was 0.00101 µg/mL.

Take B12: the “pseudovirus neutralization IC50” value turned out to be 0.00158 µg/mL.
